{
  "source": "patent US20150258059A1",
  "about": "“ANTIMICROBIAL AND RADIOPROTECTIVE COMPOUNDS” (BioDiem, Ltd, priority 2001, published 2015)",
  "key": {"[1]": {"tested_on": "Corynebacterium paratuberculosis", "assay": "Anti-bacterial activity in vivo, infected mice"}, "Fusarium graminearum": {"tested_on": "Fusarium graminearum", "assay": "Development of resistance, 12 weeks sub-inhibitory exposure"}},
  "data": [
    {"compound": "C/C(=C\\c1ccc2c(c1)OCO2)[N+](=O)[O-]", "note": "[Compound (1)]", "values": [
      {"measurement": "therapeutic and prophylactic activity", "setting": "[1]", "result": "showed therapeutic and prophylactic activity"},
      {"measurement": "MIC Final", "setting": "Fusarium graminearum; Table 20, M38-P, after 12 weeks continuous exposure", "result": 4, "unit": "µg/mL"},
      {"measurement": "MIC Initial", "setting": "Fusarium graminearum; Table 20, M38-P, parent strain", "result": 4, "unit": "µg/mL"},
      {"measurement": "Standard MIC Initial", "setting": "Fusarium graminearum; before exposure, MHB", "result": 4, "unit": "µg/mL"},
      {"measurement": "7-Day MIC Range", "setting": "Fusarium graminearum; to Wk 5", "result": "4-16 to Wk 5 μg/mL"}
    ]}
  ]
}
